Measured values taken from US20230399650.
The exact form of at least one protein or probe is not confirmed.

Experiments:
[1] = tested on: VapBC hetero-octamer, wild-type VapB (VapBQ12C) (Shigella sonnei); experiment: EMSA; settings: 0-605 nM VapBC, 88 nM DNA, 2 mM MgCl2, 37 C, purified recombinant protein, protein details: His-VapC (pET28a-VapCB, N-terminal His on VapC)
[2] = tested on: VapBC hetero-octamer, wild-type VapB (VapBQ12C) (Shigella sonnei); experiment: SPR; settings: equilibrium not reached, 50 mM Tris pH 8.0, 150 mM NaCl, 25 C; purified recombinant protein; protein details: His-VapC (pET28a-VapCB, N-terminal His on VapC); label: 5' biotin

ATCATAAACGTATATCCCTTTGACATATCCCG (double strand) [vapBC operator site 1 (SH152)]
binding result ([1]; 100 mM KCl): binds

ATCATAAACGTATATCCCTTTGACATATCCCG (double strand) [vapBC operator site 1, biotinylated for SPR (SH180 printed)]
binding result [2]: binds

TCATCATAAACGTATATCCCTTTGACATATCCCGGTATCAATCCCACAATAGATATACACAAGACATATCCACATAAGGA (double strand) [vapBC promoter region with operator sites O1 and O2 (SH150)]
binding result ([1]; 20 mM Tris pH 7.5, 100 mM KCl): binds
